# Data taken from ChEMBL document CHEMBL1156508, “Structure/function characterization of micro-conotoxin KIIIA, an analgesic, nearly irreversible blocker of mammalian neuronal sodium channels” (2007).
# Assays:
# Mus musculus [1] = experiment: Toxicity against Swiss Webster mouse formalin-induced pain model at 10 nmol, ip assessed as paralytic activity by rotarod test; conditions: in vivo
# Mus musculus [2] = experiment: Toxicity against Swiss Webster mouse formalin-induced pain model at 3 nmol, ip by rotarod test; conditions: in vivo
# Mus musculus [3] = experiment: Antiinflammatory activity against formalin-induced pain in ip dosed Swiss Webster mouse assessed as reduction of paw licking
smiles,measurement,setting,value
N=C(N)NCCC[C@@H]1NC(=O)[C@H](CO)NC(=O)[C@H](Cc2cnc[nH]2)NC(=O)[C@H](CC(=O)O)NC(=O)[C@H](CCCNC(=N)N)NC(=O)[C@@H]2CSSC[C@H](N)C(=O)N[C@H]3CSSC[C@H](NC1=O)C(=O)N[C@H](C(N)=O)CSSC[C@H](NC(=O)[C@@H](CC(N)=O)NC3=O)C(=O)N[C@@H](CO)C(=O)N[C@@H](CO)C(=O)N[C@@H](CCCCN)C(=O)N[C@@H](Cc1c[nH]c3ccccc13)C(=O)N2,Activity,Mus musculus [1],Non-toxic
same,Activity,Mus musculus [2],Non-toxic
same,ED50,Mus musculus [3],1.6 nmol
